Consider one compound from patent publication US20240336610A1, “3CL PROTEASE SMALL-MOLECULE INHIBITOR FOR TREATING OR PREVENTING CORONAVIRUS INFECTION, AND USE THEREOF” (THE GLOBAL HEALTH DRUG DISCOVERY INSTITUTE, priority 2021, published 2024).

One assay relates to SARS-CoV-2. As to the kind of experiment: SARS-CoV-2/Hela-ACE test. The conditions noted are these: read-out: SAR-CoV-2 EC50; Hela-ACE cells infected with SARS-CoV-2 (USA-WA1/2020), 48 hours.
Assay [1] addresses SARS-CoV-2 main protease (3CLpro) (Severe acute respiratory syndrome coronavirus 2 (2019-nCoV) (SARS-CoV-2), UniProt P0DTD1). As to the kind of experiment: Enzyme activity test. The conditions noted are these: 200 nM recombinant SARS-CoV-2 main protease, 15 μM fluorescent substrate, pH 7.3. In kind it is biochemical.

The match of structure and compound is tentative.

Usually EC50 stands for the concentration that produces a half-maximal response. Usually IC50 stands for the concentration that gives 50% inhibition. Consider `CC(C)(C)OC(=O)N[C@H](C(=O)N1C[C@H]2[C@@H]([C@H]1C(=O)NC(C#N)c1cncc(C(F)(F)F)c1)C2(C)C)C(C)(C)C` (some centres unmarked), for which the EC50 in the assay on SARS-CoV-2 turned out to be 0.547 µM. For the same compound, in assay [1], the IC50 came out at 0.027 µM.
